Measured values from several laboratories, pooled; numbers as filed in NIAID ChemDB.

Common to all: growth or infection tests; organism: HIV-1; cells: MT-4; measure: EC50

ECn is the concentration giving n% inhibition of infection, replication or growth.

compound,strain or isolate,mutations,method,result
CC(c1cc(=O)[nH]c(SCC(=O)c2ccccc2)n1)C1CCCCC1,IIIB,-,MTT,2.17 µM
Cc1cccc(Cc2nc(OCC(C)C)[nH]c(=O)c2C)c1,IIIB,-,cytopathic effect / MTT,4.6 µM
O=c1[nH]c(=O)n([C@H]2C[C@H](F)[C@@H](CO)O2)cc1Cl,IIIB,-,cytopathic effect,0.7 µM
O=c1[nH]c(=O)n(COCc2ccccc2)c2c1Nc1ccc(Cl)cc1S2,-,-,cytopathic effect / MTT,>3 µg/mL
Nc1ccn([C@H]2C[C@@H](OCP(=O)(O)O)CO2)c(=O)n1,IIIB,-,cytopathic effect,>321 µM
CC(C)=CCN1Cc2cc(Cl)cc3[nH]c(=S)n(c23)C[C@@H]1C,IIIB,-,cytopathic effect / MTT,0.056 µg/mL
Cc1ccncc1-c1ccc(C[C@H](C[C@H](O)CN2CCN(Cc3csc(-c4ccc(F)cc4)n3)C[C@H]2C(=O)NCC(F)(F)F)C(=O)N[C@H]2c3ccccc3OC[C@H]2O)o1,4X (PR M46I L63P V82T I84V),PR-M46I L63P V82T I84V,p24,<0.0156 µM
Cc1cn([C@@H]2O[C@H](COC(=O)c3ccccc3)[C@@H](O)[C@H]2OC(=O)c2ccccc2)c(=O)n(CC(=O)O)c1=O,IIIB,-,cytopathic effect / trypan blue,>50 µM
OCCOCn1c(-c2ccccn2)c(Br)c2ccccc21,-,-,-,>200 µM
Cc1cc(C)cc(Cc2cc(=O)[nH]c(OC3CCCCC3)n2)c1,IIIB,-,cytopathic effect / MTT,1.1 µM
CCOCn1c2c(c(=O)[nH]c1=O)Nc1ccccc1S2,-,-,cytopathic effect / MTT,6.9 µg/mL
CN(C)c1ccc(CNC(=O)[C@@H](NC(=O)c2ccccc2-c2ccccc2)[C@@H]2N[C@@H](C(=O)NCCNC(=O)[C@@H]3N[C@@H]([C@H](NC(=O)c4ccccc4-c4ccccc4)C(=O)NCc4ccc(N(C)C)cc4)SC3(C)C)C(C)(C)S2)cc1,RF,-,cytopathic effect / MTT,0.01 µM
O=c1[nH]cnc2c1ncn2[C@H]1CC[C@@H](CO)O1,IIIB,-,cytopathic effect / MTT,0.46 µg/mL
Cc1cc(C)cc(Cc2[nH]c(=O)[nH]c(=O)c2C)c1,IIIB,-,cytopathic effect / MTT,38 µM
Nc1ncnc2c1ncn2[C@H]1CC[C@@H](CO)O1,IIIB Laboratory strain,-,cytopathic effect / trypan blue,2.5 µM
Cc1c(C(C)CC2CCCCC2)nc(SCC(=O)c2ccc(O)cc2)[nH]c1=O,IIIB,-,MTT,0.13 µM
Cc1cn([C@H]2C[C@H](N=[N+]=[N-])[C@@H](CO)O2)c(=O)[nH]c1=O,IIIB,-,cytopathic effect / MTT,0.0007 µg/mL
Cc1c(C(C)CC2CCCCC2)nc(SCC(=O)c2ccc(F)cc2)[nH]c1=O,IIIB,-,MTT,1.01 µM
O=C(CSc1nncnc1-c1ccccc1Cl)Nc1ccccc1[N+](=O)[O-],RES056,-,MTT,>11 µM
Nc1ncnc2c1ncn2CCOCP(=O)(O)O,IIIB,-,cytopathic effect,5.5 µM
Cc1cccc(Cc2cc(=O)[nH]c(OCC(C)C)n2)c1,IIIB,-,cytopathic effect / MTT,1.8 µM
N#Cc1cn(COCCO)c2ccccc12,-,-,-,>200 µM
C[C@H](Cn1cnc2c(=O)[nH]c(N)nc21)OCP(=O)(O)O,IIIB,-,MTT,4.5 µM
Nc1ccn([C@H]2CC[C@@H](CO)O2)c(=O)n1,HXB2-D184 (RT-M184V),RT-M184V,RT activity,2.4 µM
Cc1cc(C)cc(Cc2nc(OC3CCCC3)[nH]c(=O)c2C)c1,IIIB,-,cytopathic effect / MTT,29 µM
O=c1ccn([C@H]2C[C@@H](OCP(=O)(O)O)CO2)c(=O)[nH]1,IIIB,-,cytopathic effect,>336 µM
Cc1ccncc1-c1ccc(C[C@H](C[C@H](O)CN2CCN(Cc3ncc(-c4ccc(Cl)cc4)o3)C[C@H]2C(=O)NCC(F)(F)F)C(=O)N[C@H]2c3ccccc3OC[C@H]2O)o1,4X (PR M46I L63P V82T I84V),PR-M46I L63P V82T I84V,p24,<0.0625 µM
COc1ccc(C(=O)CSc2nc(CCC3CCCCC3)cc(=O)[nH]2)cc1,IIIB,-,MTT,35.7 µM
CC(C)(C)[Si](C)(C)OC[C@H]1O[C@@H](n2ccc(=O)n(CC(=O)O)c2=O)[C@H](O[Si](C)(C)C(C)(C)C)[C@@H]1O,IIIB,-,cytopathic effect / trypan blue,>10 µM
CC(C)[C@H](NC(=O)[C@H](NCc1ccccc1)[C@H](O)[C@H](Cc1ccccc1)NC(=O)[C@H](CCC(=O)O)NC(=O)OCc1ccccc1)C(=O)NCc1ccccc1,IIIB,-,cytopathic effect / MTT,2 µM
Nc1ncnc2c1ncn2[C@H]1C[C@@H](OCP(=O)(O)O)CO1,IIIB,-,cytopathic effect,2.53 µM
O=C(N[C@H]1c2ccccc2OC[C@H]1O)[C@H](Cc1cc2cnccc2s1)C[C@H](O)CN1CCN(Cc2ccc(-c3ccc(Cl)cc3)o2)C[C@H]1C(=O)NCC(F)(F)F,4X (PR M46I L63P V82T I84V),PR-M46I L63P V82T I84V,p24,<0.0156 µM
Cc1cn([C@@H]2O[C@H](CO[Si](C)(C)C(C)(C)C)[C@@H](O)[C@H]2O[Si](C)(C)C(C)(C)C)c(=O)n(CC(=O)O)c1=O,IIIB,-,cytopathic effect / trypan blue,5.3 µM
Nc1ncnc2c1ncn2[C@H]1C=C[C@@H](CO)O1,IIIB Laboratory strain,-,cytopathic effect / trypan blue,>125 µM
Cc1ccc(NC(=O)CSc2nncnc2-c2ccccc2Cl)c(Br)c1,IIIB,-,MTT,0.178 µM
Cc1cn([C@H]2C[C@H](N=[N+]=[N-])[C@@H](CO)O2)c(=O)[nH]c1=O,IIIB Laboratory strain,-,cytopathic effect / trypan blue,0.006 µM
O=C(CSc1nncnc1-c1ccccc1Cl)Nc1ccccc1,IIIB,-,MTT,0.42 µM
CC(C)(C)[Si](C)(C)OC[C@H]1O[C@@H](n2ccc(=O)n(CC(=O)O)c2=O)[C@H](O)[C@@H]1O[Si](C)(C)C(C)(C)C,IIIB,-,cytopathic effect / trypan blue,>10 µM
O=c1[nH]c(=O)n([C@@H]2O[C@H](CO)[C@@H](O)[C@H]2O)c2c1Nc1ccccc1S2,-,-,cytopathic effect / MTT,>53 µg/mL
Nc1ccc(-c2cccc(OCC(F)(F)F)c2)c(C(Cc2cc(F)cc(F)c2)NC(=O)Cc2c[nH]c3ccc(F)cc23)n1,IIIB,-,ATP,3 µM
O=C(N[C@H]1c2ccccc2OC[C@H]1O)[C@H](Cc1cc2cnccc2s1)C[C@H](O)CN1CCN(Cc2csc(-c3ccc(C(F)(F)F)cc3)n2)C[C@H]1C(=O)NCC(F)(F)F,NL4-3,-,p24,<0.026 µM
CC(=O)OCCOCn1c(-c2ccccn2)c(Br)c2ccccc21,-,-,-,>200 µM
Cc1cn([C@H]2C[C@H](N=[N+]=[N-])[C@@H](CO)O2)c(=O)[nH]c1=O,IIIB,-,MTT,0.0071 µM
Cc1cc(C)cc(Cc2cc(=O)[nH]c(OC(C)C)n2)c1,IIIB,-,cytopathic effect / MTT,3.1 µM
CC(C)Nc1cccnc1N1CCN(C(=O)c2cc3cc(NS(C)(=O)=O)ccc3[nH]2)CC1,RES056,-,MTT,>36 µM
Cc1cn([C@H]2CC[C@@H](CO)O2)c(=O)[nH]c1=O,IIIB Laboratory strain,-,cytopathic effect / trypan blue,0.2 µM
Cc1cn([C@H]2C=C[C@@H](CO[Si](C)(C)C(C)(C)C)O2)c(=O)n(CC(=O)O)c1=O,IIIB,-,cytopathic effect / trypan blue,>10 µM
CC(C)=CCN1c2cc(Cl)cc3[nH]c(=S)n(c23)C[C@@H]1C,-,RT-L74V K103N,-,<0.8 µM
Cc1cccc(Cc2nc(OC3CCCCC3)[nH]c(=O)c2C)c1,IIIB,-,cytopathic effect / MTT,16.7 µM
CC(=O)OCCOCn1cc(C#N)c2ccccc21,-,-,-,>200 µM
O=C(CSc1nncnc1-c1ccccc1Cl)Nc1cccnc1Cl,RES056,-,MTT,23 µM
O=[N+]([O-])c1c(-c2ccccc2)n(COCCO)c2ccccc12,-,-,-,>154 µM
O=c1ccn([C@@H]2OC[C@H](OCP(=O)(O)O)[C@H]2O)c(=O)[nH]1,IIIB,-,cytopathic effect,>155 µM
Nc1ncnc2c1ncn2CCOCP(=O)(O)O,IIIB,-,MTT,5.3 µM
Cc1cn([C@H]2C[C@H](N=[N+]=[N-])[C@@H](CO)O2)c(=O)[nH]c1=O,IIIB,-,MTT,0.021 µM
CCc1c(CCC2CCCCC2)nc(SCC(=O)c2ccc(O)cc2)[nH]c1=O,IIIB,-,MTT,0.05 µM

An empty or dashed field is not shown. Rows are shuffled and stem from different studies.